{"source": "paper PMC12443476", "about": "(eLife, 2025)", "key": {"[1]": {"biological_target": "Orf9b Lambda variant (P10S), refolded (SARS-CoV-2) (UniProt P0DTD2)", "assay": "SEC"}, "[2]": {"biological_target": "Orf9b Lambda variant (P10S), refolded (SARS-CoV-2) (UniProt P0DTD2)", "assay": "fluorescence polarisation"}, "[3]": {"biological_target": "Orf9b Omicron variant (P10S, ∆27–29), refolded (SARS-CoV-2) (UniProt P0DTD2)", "assay": "SEC"}, "[4]": {"biological_target": "Orf9b Omicron variant (P10S, ∆27–29), refolded (SARS-CoV-2) (UniProt P0DTD2)", "assay": "fluorescence polarisation"}}, "data": [{"substance": "Orf9b Lambda variant (P10S), refolded (from UniProt P0DTD2 1-97) (natural protein)", "values": [{"measurement": "stoichiometry N", "setting": "[1]", "value": 2}, {"measurement": "Kd", "setting": "[2]", "value": 250, "unit": "nM"}, {"measurement": "koff", "setting": "[2]", "value": 0.02, "unit": "s⁻¹"}]}, {"substance": "Orf9b Omicron variant (P10S, ∆27–29), refolded (from UniProt P0DTD2 1-97) (natural protein)", "values": [{"measurement": "stoichiometry N", "setting": "[3]", "value": 2}, {"measurement": "Kd", "setting": "[4]", "value": 3100, "unit": "nM"}, {"measurement": "koff", "setting": "[4]", "value": 0.25, "unit": "s⁻¹"}]}]}
